Deep mutational scan of the Zika virus protease

Data from the supplement of Ni et al. 2025, doi:10.1038/s41467-025-63602-z.

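Pools of virus carrying all single amino acid changes were selected for growth in Huh-7.5 cells. Sequencing of three replicate libraries (two for positions 207-308) was averaged into one effect per change.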

Protein: NS2B and the protease part of NS3 of Zika virus strain MR766. Positions count along the chain below; NS2B spans 2-131 and NS3 starts at 132.
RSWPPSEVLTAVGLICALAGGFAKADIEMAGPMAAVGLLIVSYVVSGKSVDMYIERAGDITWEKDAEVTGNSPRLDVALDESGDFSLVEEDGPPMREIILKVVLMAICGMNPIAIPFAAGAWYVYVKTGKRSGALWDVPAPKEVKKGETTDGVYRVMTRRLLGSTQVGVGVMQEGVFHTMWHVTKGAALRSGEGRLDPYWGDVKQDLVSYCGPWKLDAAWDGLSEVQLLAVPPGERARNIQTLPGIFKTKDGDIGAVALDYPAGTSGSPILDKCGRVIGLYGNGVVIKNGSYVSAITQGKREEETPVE

Scale: log2 effect, wild type = 0; the lower, the more harmful to the virus.
Substitutions are written as wild-type residue, site number, new residue.
All changes here are to arginine.
The authors count -1 or higher as tolerated. Position 1 is the last residue of NS2A.
Positions 1-103, 104-206 and 207-308 were made and measured as separate libraries.
Six mutants with high scores were retested singly and none clearly outgrew wild type, so positive values are not proof of better growth.

substitution,effect (log2)
G58R,-7.61
D59R,-7.27
I60R,-7.96
T61R,-1.88
W62R,-6.69
E63R,-6.63
K64R,-0.26
D65R,-7.55
A66R,-7.64
E67R,-7.12
V68R,-5.75
T69R,-7.45
G70R,-5.76
N71R,-6.93
S72R,-7.24
P73R,-7.60
L75R,-8.04
D76R,-0.87
V77R,-7.68
A78R,0.18
L79R,-5.92
D80R,-7.43
E81R,-7.39
S82R,-5.98
G83R,-7.87
D84R,-7.29
F85R,-6.77
S86R,0.22
L87R,-8.25
V88R,-6.38
E89R,-4.50
E90R,-4.61
D91R,-5.80
G92R,-5.36
P93R,-5.80
P94R,-2.64
M95R,-4.23
E97R,-7.01
I98R,-7.48
I99R,-6.74
L100R,-7.26
K101R,-1.92
V102R,-7.70
V103R,-6.29
L104R,-8.25
M105R,-7.33
A106R,-6.85
I107R,-6.82
C108R,-6.66
G109R,-6.44
M110R,-3.39
N111R,-2.88
P112R,-6.95
I113R,-6.45
A114R,-8.01
I115R,-7.18
P116R,-7.61
F117R,-7.03
A118R,-7.15
A119R,-7.02
G120R,-7.37
A121R,-7.31
W122R,-7.58
Y123R,-7.18
V124R,-7.16
Y125R,-7.36
V126R,-1.76
K127R,-1.38
T128R,-0.15
G129R,-6.84
K130R,-7.19
S132R,-7.52
G133R,-7.15
A134R,-6.76
L135R,-8.21
W136R,-7.82
D137R,-7.32
V138R,-6.41
P139R,-7.01
A140R,-5.69
P141R,-6.33
K142R,-0.35
E143R,-2.66
V144R,-1.77
K145R,-1.39
K146R,-0.88
G147R,-5.86
E148R,-2.11
T149R,-3.61
T150R,-3.01
D151R,-6.84
G152R,-6.25
V153R,-7.10
Y154R,-6.71
V156R,-7.23
M157R,-5.76
T158R,-5.78
L161R,-6.77
L162R,-6.10
G163R,-4.41
S164R,-0.02
T165R,-0.85
Q166R,-7.06

The first 11 entries again:

G58R read -7.61.
D59R read -7.27.
I60R read -7.96.
T61R read -1.88.
W62R read -6.69.
E63R read -6.63.
K64R read -0.26.
D65R read -7.55.
A66R read -7.64.
E67R read -7.12.
V68R read -5.75.